{"source": "patent US20150197559A1", "about": "(University of California, published 2015)", "binders": {"B1": {"name": "ING1 IgG (antibody, V domains shown)", "VH": "QVQLQQSGGGLVQPGGSLRLSCAASGFTFSNYAMTWVRQAPGKGLEWVSSISVGGSDTYYADSVKGRFTVSRDNSKNTLLLQMNSLRAEDTAVYYCAKVRTKYCSSLSCFAGFDSWGQGTRVTVSS", "VL": "not shown"}, "B2": {"name": "B6.1 IgG (antibody, V domains shown)", "VH": "QVQLVQSGAEVKKPGESLVISCKASGDKDTFTSFWIAWVRQMPGKGLEWMGIIYAGDSDTRYSPSFQGHVNISVDRSTNTAYLQWSSLKASDTAMYYCARHDSRYKYFYFGMDVWGQGTTVTVSS", "VL": "not shown"}, "B3": {"name": "B6.1 Fab (Fab, V domains shown)", "VH": "B2 VH", "VL": "not shown"}, "B4": {"name": "4B7 scFv (scFv)", "scFv": "QVQLQQSGPGLVKPSQTLSLTCSVSGGSINSDGSYWSWVRQHPGKGLEWIGYIYYSGTTYFNPSLKSRLTMSVDTSKNQFSLKMTSVTAADTAVYYCARMSGSRSYSQYYFDSWGQGTLVTVSSGGGGSGGGGSGGGGSDIQMTQSPSSLSASVGDRVTITCRASQSISSYLNWYQQKPGTAPKLLISDASTLQSGVPSRFSGSGSGTEFTLTISNLQPEDFATYYCQQFNSYVWTFGQGTKLEIK"}, "B5": {"name": "1B10 scFv (scFv)", "scFv": "QVQLVESGGGVVQPGRSLRLSCAASGFTFSHYGMHWVRQSPGKGLEWVAVIWYDGRNPYYAASVKGRFTISRDNDKNTLYLQMNSLRAEDTAVYYCVKDLTRFHDTTFGVFEMWGPGTTVTVSSGGGGSGGGGSGGGGSEIVLTQSPSSLSASVGDRITITCRASQSISSWLAWYQQKPGKAPMVLIYKASSLENGVPSRFSGSGSGTEFTLTISSLQPDDFATYYCQQYSTYSRTFGQGTKVEIK"}, "B6": {"name": "4B19 scFv (scFv)", "scFv": "QVQLVQSGAEVKKPGASVNVSCKASGYTFTGYYIYWVRQAPGQGLEWMGWINPNSGVTKYAQKFQGRVTMTIDTSTNTAYMELNRLRADDTAVYYCAREWTQLWSPYDYWGQGTTVTVSSGGGGSGGGGSGGGGSDIVLTQSPSTLSASVGDRVTISCRASRSIGWYLNWYQQRPGKAPKLLIYAASSLHNGVPSRFSGSGSGTEFTLTISSLQPDDFATYYCQQAFGFPRTFGQGTKVEIK"}, "B7": {"name": "1B22 scFv (scFv)", "scFv": "QVQLQESGSRLVKPSQTLSLTCGVSGGSISSSSYSWSWIRQTPGKGLEWIGYIYHSGSTYYNPSLKSRVTMSVDKSRNQFSLNMSSVTAADTAVYYCARTAFYYENTGPIRCYLDFWGQGTLVTVSSGGGGSGGGGSGGGGSDIQMTQSPSTLSASIGDRVTISCRASQSIQSWLAWYQQRPGEAPKLLIYSASTLQTGVPSRFSGSGSGTDFTLTISSLQPEDFATYYCQQYNSYPLTFGQGTKLEIK"}, "B8": {"name": "2B23 scFv (scFv)", "scFv": "EVQLLESGGGLVQPGGSLRLSCAASGFTFSNYPMSWVRQAPGKGLAWVSSLTASGDNTFYADSVKGRFTISRDNSNNTLYLQMHSLRAEDTAVYYCAKALVGRYDISTGYYRPVMDSWGQGTLVTVSSGGGGSGGGGSGGGGSDIQMTQSPPSLSASVGDRVTITCRTSQGFTSALAWYQQKPGEPPKLLIYDASKLESGVPSRFSGSGSGTNFALTISSLQPEDFATYFCQQSNSYPLTFGGGTKVEIK"}, "B9": {"name": "2B24 scFv (scFv)", "scFv": "QVQLVESGGGVVQPGRSLRLSCAASGLTFSVYGMHWVRQAPGKGLEWVAVISHTGSEEYYADSVKGRFSISRDNSNNTLFLQMNSLRPEDTAVYYCVKDGPMAAIPFYYFDFWGQGTLVTVSSGGGGSGGGGSGGGGSQSVVTQPPSVSAAPGQKVTISCSGSSSNIGNNYVSWYQQLPGTAPKLLIYDNNKRPSGIPDRFSGSKSGTSATLGITGLQTGDEADYYCGTWDSSLSAGVFGGGTKLTVL"}, "B10": {"name": "2B25 scFv (scFv)", "scFv": "QVQLQESGPGLVKPSQTLSLSCSVSGASITSGTFYWSWIRQHPGKDLEWIGYIYYSGTTYYNPSLKSRVTLSVDTSKNQFSLKVTSLTAADTAVYHCARGVPIYDSSGTYRGTYFDYWGQGTLVTVSSGGGGSGGGGSGGGGSQPGLTQPPSASGTPGQRVTISCSGSSSNVGSNTVNWYQQLPGTAPKLLIYRNDQRPSGVPDRFSGSKSGASASLAISGLRSEDEADYYCAAWDDSLNGLLFGGGTQLTVL"}, "B11": {"name": "4B6 scFv (scFv)", "scFv": "QVQLVQSGAEVKKPGESLVISCKASGDKDTFTSFWIAWVRQMPGKGLEWMGIIYAGDSDTRYSPSFQGHVNISVDRSTNTAYLQWSSLKASDTAMYYCARHDSRYKYFYFGMDVWGQGTTVTVSSGGGGSGGGGSGGGGSDVVMTQSPSSLSASVGDRITITCQAGQDISNFLNWYQQKPGKAPKLLIRDASNLETGVPSRFSGGGSGTHFTFTISSLHPEDIATYFCQQYDNLPYTFGQGTKLEIK"}}}
{"biological_target": "Complex BoNT/A3 (Clostridium botulinum)", "test": "KinExA flow fluorimetry, IgG in solution", "units": {"Kd": "nM"}}
{"binder": "B1", "Kd": 0.4}
{"biological_target": "T1, BoNT/B2 (Clostridium botulinum)", "test": "KinExA flow fluorimetry, IgG in solution", "units": {"Kd": "nM"}}
{"binder": "B2", "Kd": 0.00918}
{"biological_target": "T2, BoNT/B3 (Clostridium botulinum)", "test": "KinExA flow fluorimetry, IgG in solution", "units": {"Kd": "nM"}}
{"binder": "B2", "Kd": 0.0285}
{"biological_target": "T3, BoNT/B4 (Clostridium botulinum)", "test": "KinExA flow fluorimetry, IgG in solution", "units": {"Kd": "nM"}}
{"binder": "B2", "Kd": 0.00941}
{"biological_target": "T1, BoNT/B2", "test": "flow cytometry, yeast-displayed Fab, soluble toxin", "units": {"Kd": "nM"}}
{"binder": "B3", "Kd": 0.246}
{"biological_target": "T1, BoNT/B2", "test": "flow cytometry, yeast-displayed scFv, soluble toxin", "units": {"Kd": "nM"}}
{"binder": "B4", "Kd": 34.8}
{"binder": "B5", "Kd": 9.4}
{"binder": "B6", "Kd": 7.03}
{"binder": "B7", "Kd": 0.46}
{"binder": "B8", "Kd": 0.13}
{"binder": "B9", "Kd": 4}
{"binder": "B10", "Kd": 0.63}
{"binder": "B11", "Kd": 1.77}
{"biological_target": "T2, BoNT/B3", "test": "flow cytometry, yeast-displayed scFv, soluble toxin", "units": {"Kd": "nM"}}
{"binder": "B6", "Kd": 3.9}
{"binder": "B7", "Kd": 0.39}
{"binder": "B8", "Kd": 0.25}
{"binder": "B9", "Kd": 4}
{"binder": "B10", "Kd": 0.93}
{"biological_target": "T3, BoNT/B4", "test": "flow cytometry, yeast-displayed scFv, soluble toxin", "units": {"Kd": "nM"}}
{"binder": "B4", "Kd": 10}
{"binder": "B5", "Kd": 4.69}
{"binder": "B6", "Kd": 3.3}
{"binder": "B7", "Kd": 0.48}
{"binder": "B8", "Kd": 0.19}
{"binder": "B9", "Kd": 0.72}
{"binder": "B10", "Kd": 0.68}
